Measured values from several laboratories, pooled; numbers as filed in NIAID ChemDB.

Common to all: whole-cell or culture tests; agent: Mycobacterium tuberculosis

Blank or dashed fields: not listed here.

structure,strain or isolate,endpoint,cells,tested at,read by,mutations,result
CCOc1ccc(N2C(=O)/C(=C\C=C\c3ccccc3)S/C2=N\c2ccccn2)cc1,H37Rv,MIC,,,,,≥25 µg/mL
CC(C)[C@H]1CO[C@]23CC[C@H](N(Cc4ccc(C(F)(F)F)cc4)CC4CCN(C(=O)OC(C)(C)C)CC4)C[C@H]2CCC(=O)N13,,MIC,,,resazurin,,0.5–5 µM
CO[C@H]1/C=C/O[C@@]2(C)Oc3c(C)c(O)c4c(O)c5c(c(O)c4c3C2=O)CN=C(N5)/C(C)=C\C=C\[C@H](C)[C@H](O)[C@@H](C)[C@@H](O)[C@@H](C)[C@H](OC(C)=O)[C@@H]1C,234,MIC,,,,,>1 µg/mL
CCCCN(CCCC)CCNc1ccc(C)c2sc3c(Cl)cccc3c(=O)c12,H37Rv,inhibition,,12.5 µg/mL,BACTEC,,99%
CCOC(=O)c1cn(C)c2c(cc([N+](=O)[O-])c3cccnc32)c1=O,H37Rv,MIC90,,,,gyrA mutation D94G,0.21 µM
NNC(=O)c1ccncc1,Rifampicin-resistant (5 strains pooled),Mean MIC,,,,,22 µg/mL
C[CH2][Sn]([I])([I])[CH2]C.c1cnc2c(c1)ccc1cccnc12,H37Rv,MIC,VERO,,BACTEC,,12.5 µg/mL
CCCCOC(=O)CSc1nnc(-c2ccc([N+](=O)[O-])s2)s1,H37Rv,inhibition,,6.25 µg/mL,resazurin,,100%
CC(C)[C@H]1CO[C@]23CC[C@@H](N(CCF)Cc4ccc(C(F)(F)F)cc4)C[C@H]2CCC(=O)N13,,MIC,,,resazurin,,0.5–5 µM
C[C@H]1COc2c(N3C[C@@H]4CCCN[C@@H]4C3)c(F)cc3c(=O)c(C(=O)O)cn1c23,Rifampicin-sensitive (7 strains pooled),Mean MIC,,,,,0.2 µg/mL
CC(C)[C@H]1CO[C@]23CC[C@H](N(Cc4ccc(C(F)(F)F)cc4)C4CCC4)C[C@H]2CCC(=O)N13,,MIC,,,resazurin,,<0.5 µM
COc1ccc(C2C3=C(CCCC3=O)OC3=C2C(=O)CCC3)cc1OC,H37Ra,MIC,,,resazurin,,≥0.4 µg/mL
CCOC(=O)C(Cc1ccccc1)NOP(=O)(CCC(=O)N1C[C@@H](n2cnc3c(=O)[nH]c(N)nc32)[C@H](OC[C@@H](O)P(=O)(ONC(Cc2ccccc2)C(=O)OCC)ONC(Cc2ccccc2)C(=O)OCC)C1)ONC(Cc1ccccc1)C(=O)OCC,H37Rv,MIC90,Macrophage,,,,85 µM
CCCOC(=O)CSc1nnc(-c2ccc([N+](=O)[O-])s2)s1,H37Rv,inhibition,,6.25 µg/mL,resazurin,,100%
CO[C@H]1/C=C/O[C@@]2(C)Oc3c(C)c(O)c4c(O)c(c(/C=N/N5CCN(C)CC5)c(O)c4c3C2=O)NC(=O)/C(C)=C\C=C\[C@H](C)[C@H](O)[C@@H](C)[C@@H](O)[C@@H](C)[C@H](OC(C)=O)[C@@H]1C,6 strains (rifampicin-resistant),MIC90,,,,,100 µg/mL
C[C@H]1COc2c(N3CC[C@@H](CNC4CC4)C3)c(F)cc3c(=O)c(C(=O)O)cn1c23,Rifampicin-resistant (5 strains pooled),Mean MIC,,,,,1.7 µg/mL
[N-]=[N+]=NCCCCN1C(=O)C(=O)c2cc(Cl)ccc21,MC2 6230,MIC99,,,,,164 µM
C=C(CN[C@H]1CC[C@]23OC[C@H](C(C)C)N2C(=O)CC[C@@H]3C1)c1ccc(C(F)(F)F)cc1,,MIC,,,resazurin,,0.5–5 µM
CCOc1ccc(N2C(=O)/C(=C/c3ccc4c(c3)OCO4)S/C2=N\c2ccccn2)cc1,H37Rv,MIC,,,,,≥25 µg/mL
COc1ccc(-n2[nH]c(C)c(N=Nc3ccc(-c4n[nH]c(=S)o4)cc3)c2=O)cc1,H37Rv,inhibition,,6.25 µg/mL,,,2%
Nc1cc(O)c(C(=O)O)cc1F,H37Rv,MIC90,,,resazurin,Kanamycin-resistant,6.25 µg/mL
C[C@H]1COc2c(N3C[C@@H](N)C4(CCC4)C3)c(F)cc3c(=O)c(C(=O)O)cn1c23,Rifampicin-sensitive (7 strains pooled),Mean MIC,,,,,0.6 µg/mL
C/C(CC(=O)NCCc1ccccc1)=N\NC(=O)C[n+]1ccccc1.[Cl-],H37Rv,MIC bound,,,BACTEC,,>12.5 µg/mL
O=C(O)C(=NNc1ccc(C(=O)N/N=C/c2ccc([N+](=O)[O-])o2)cc1)C(=O)O,H37Rv,EC50,,,,,>6.25 µg/mL
Nc1nc(N)c2nonc2n1,H37Rv,inhibition,,12.5 µg/mL,BACTEC,,6%
CN[C@@H]1[C@H](O[C@H]2[C@H](O[C@H]3[C@H](O)[C@@H](O)[C@H](N=C(N)N)[C@@H](O)[C@@H]3N=C(N)N)O[C@@H](C)[C@]2(O)C=O)O[C@@H](CO)[C@H](O)[C@H]1O,H37Ra,EC50,,,resazurin,,6.25 µg/mL
Nc1nc(COC(=O)c2cc(F)cc(C(F)(F)F)c2)cs1,H37Rv,MIC,,,,,1.25 µg/mL
CCOc1ccc(N2C(=O)/C(=C/c3ccc(OC)c(OC)c3)S/C2=N\c2ccccn2)cc1,H37Rv,MIC,,,,,≥25 µg/mL
CC(C)[C@H]1CO[C@]23CC[C@@H](NCc4cc(C(F)(F)F)nc5ccccc45)C[C@H]2CCC(=O)N13,,MIC,,,resazurin,,<0.5 µM
CCOc1ccc(N2C(=O)/C(=C/c3ccccc3)S/C2=N\c2ccccn2)cc1,H37Rv,MIC,,,,,≥25 µg/mL
O=C1CCCC2=C1C(c1cccs1)C1=C(CCCC1=O)O2,H37Ra,MIC,,,resazurin,,≥3.125 µg/mL
O=C(NCc1ccccc1)c1ccccc1NS(=O)(=O)c1ccc(Cl)c(Cl)c1,H37Rv,inhibition,,6.25 µg/mL,resazurin,,-22%
C=CCN1C(=O)/C(=C\c2cccnc2)S/C1=N\c1nc2ccccc2s1,H37Rv,MIC,,,,,≥25 µg/mL
Cc1[nH]n(C(=O)c2sc3ccc(Cl)cc3c2Cl)c(=O)c1N=Nc1cccc([N+](=O)[O-])c1,,inhibition,,40 µg/mL,agar diffusion / agar,,46%
CC(C)CCNc1nc(N)[nH]c(=O)c1NC=O,H37Rv,inhibition,,12.5 µg/mL,BACTEC,,10%
Cc1ccnc2c1N(C(=O)CN1CCN(c3cc4c(cc3F)c(=O)c(C(=O)O)cn4C3CC3)CC1)C(=O)c1cccnc1N2C1CC1,H37Rv (ATCC 27294),EC50,,,BACTEC,,100 µg/mL
CC(C)[C@H]1CO[C@]23CC[C@H](N(Cc4ccc(C(F)(F)F)cc4)CC4CC4(F)F)C[C@H]2CCC(=O)N13,,MIC,,,resazurin,,<0.5 µM
C=C(C)C1Cc2c(cc(O)c3c(=O)c4c(oc23)C(O)Oc2cc(OC)c(OC)cc2-4)O1,H37Rv,inhibition,,12.5 µg/mL,BACTEC,,84%
[N-]=[N+]=NCCCCCCN1C(=O)C2(OCCO2)c2cc(F)ccc21,MC2 6230,MIC99,,,,,>299 µM
C[CH2][Sn]([Cl])([Cl])[CH2]C.c1cnc2c(c1)ccc1cccnc12,H37Rv,inhibition,,12.5 µg/mL,BACTEC,,98%
CCn1cc(C(=O)O)c(=O)c2ccc(C)nc21,BCG,MIC90,,,,gyrA mutation D94G,>50 µM
COc1cccc2c1C(=O)c1c(O)c3c(c(O)c1C2=O)CC(O)(C(C)=O)CC3OC1CC(NCC2(O)OC(C(=O)NCCCN(C)C)C(O)C2O)C(O)C(C)O1,PAS-R,MIC,,,,,12.5 µg/mL
CO[C@H]1/C=C/O[C@@]2(C)Oc3c(C)c(O)c4c(O)c(c(/C=N/N5CCN(C6CCCC6)CC5)c(O)c4c3C2=O)NC(=O)/C(C)=C\C=C\[C@H](C)[C@H](O)[C@@H](C)[C@@H](O)[C@@H](C)[C@H](OC(C)=O)[C@@H]1C,1032,MIC,,,,,0.08 µg/mL
COc1cc(C2OC(c3sc4ccc(Cl)cc4c3Cl)=NN2C(C)=O)cc(OC)c1OC,,inhibition,,40 µg/mL,agar diffusion / agar,,0%
Cc1[nH]n(-c2ccccc2)c(=O)c1N=Nc1ccc(-c2n[nH]c(=S)n2C)cc1,H37Rv,EC50,,,,,>6.25 µg/mL
[N-]=[N+]=NCCCCCCN1C(=O)C2(OCCO2)c2cc(Cl)ccc21,MC2 6230,MIC99,,,,,>286 µM
CC(=O)NC1=C(OS(=O)(=O)c2ccc(C)cc2)CN(C)C1=O,H37Rv,MIC bound,,,BACTEC,,>12.5 µg/mL
Cc1ccc(Cl)cc1N=Nc1c(C)[nH]n(C(=O)c2sc3ccc(Cl)cc3c2Cl)c1=O,,inhibition,,40 µg/mL,agar diffusion / agar,,28%
CCn1cc(C(=O)O)c(=O)c2cc(F)c(N3CCN(CC(=O)N4C(=O)c5cccnc5N(C5CC5)c5nccc(C)c54)CC3)cc21,H37Rv (ATCC 27294),EC50,,,BACTEC,,76 µg/mL
[N-]=[N+]=NCCCN1C(=O)C2(OCCO2)c2cc(Cl)ccc21,MC2 6230,MIC99,,,,,>325 µM
NNC(=O)c1ccc([N+](=O)[O-])o1,H37Rv,MIC bound,,,BACTEC,,>12.5 µg/mL
C=CCN1C(=O)/C(=C/c2ccc(O)c(OCC)c2)S/C1=N\c1nc2ccccc2s1,H37Rv,MIC,,,,,≥25 µg/mL
CNC(=O)c1cc(C(=O)NC)c[n+](Cc2c(Cl)cccc2Cl)c1.[Br-],H37Rv,inhibition,,12.5 µg/mL,BACTEC,,1%
C[C@@H]1CN(c2c(F)c(N)c3c(=O)c(C(=O)O)cn(C4CC4)c3c2F)C[C@H](C)N1,900201,MIC,,,,,0.2 µg/mL
CSC1C(=O)Nc2ccc3ccccc3c21,H37Rv,MIC bound,,,resazurin,,>6.25 µg/mL
O=C1CCCC2=C1C(c1ccccc1)C1=C(CCCC1=O)O2,H37Ra,MIC,,,resazurin,,≥1.6 µg/mL
CCC1(C)C(=O)N(Br)C(=O)N1Br,H37Rv,inhibition,,12.5 µg/mL,BACTEC,,0%
CN(C)CCCN1c2ccccc2Sc2ccc(Cl)cc21,H37Rv,MIC,,,,,15 µg/mL
Cc1ccc(N=Nc2c(C)[nH]n(C(=O)c3sc4ccc(Cl)cc4c3Cl)c2=O)c(C)c1,,inhibition,,40 µg/mL,agar diffusion / agar,,18%
CC(C)[C@H]1CO[C@]23CC[C@H](OC(c4ccc(Cl)cc4)c4ccc(Cl)cc4)C[C@H]2CCC(=O)N13,,MIC,,,resazurin,,<0.5 µM
Cc1cnc(/C=N/NC(N)=S)cn1,PZA-R,MIC,,,,,12.5 µg/mL
CC(C)[C@H]1CO[C@]23CC[C@H](N(Cc4ccc(C(F)(F)F)cc4)CC4CCCCC4)C[C@H]2CCC(=O)N13,,MIC,,,resazurin,,<0.5 µM
C[C@H]1COc2c(N3CC[C@H](N(C)C)C3)c(F)cc3c(=O)c(C(=O)O)cn1c23,Rifampicin-sensitive (7 strains pooled),Mean MIC,,,,,3 µg/mL
C=CCN1C(=O)/C(=C/c2ccc(Cl)cc2Cl)S/C1=N\c1nc2ccccc2s1,H37Rv,MIC,,,,,≥25 µg/mL
CC1=CCC[C@@]2(C)O[C@H]2[C@H]2OC(=O)[C@@H](C)[C@@H]2CC1,,MIC,,,,,128 µg/mL
COc1ccc(CCNc2ccc(NCCc3ccc(OC)c(OC)c3)c3c2C(=O)c2ccccc2C3=O)cc1OC,H37Rv,MIC bound,,,BACTEC,,>12.5 µg/mL
[N-]=[N+]=NCCCCCCN1C(=O)C2(OCCO2)c2ccccc21,MC2 6230,MIC99,,,,,158 µM
N#CC(C#N)=Cc1ccc(Cl)o1,H37Rv,inhibition,,12.5 µg/mL,BACTEC,,21%
Cc1[nH]n(-c2ccc([N+](=O)[O-])cc2)c(=O)c1N=Nc1ccc(-c2n[nH]c(=S)n2C)cc1,H37Rv,MIC,,,,,>6.25 µg/mL
O=C1CN(/N=C/c2ccc(-c3ccc(F)cc3)o2)C(=O)N1,H37Rv,MIC bound,,,BACTEC,,>12.5 µg/mL
[N-]=[N+]=NCCCCCCCCN1C(=O)C2(OCCO2)c2cc(F)ccc21,MC2 6230,MIC99,,,,,144 µM
CN1S(=O)(=O)N(C)P12(N=P(CP(=NP13(N(C)S(=O)(=O)N1C)N(C)S(=O)(=O)N3C)(c1ccccc1)c1ccccc1)(c1ccccc1)c1ccccc1)N(C)S(=O)(=O)N2C,H37Rv,inhibition,,12.5 µg/mL,BACTEC,,10%
CCOc1ccc(N2C(=O)CS/C2=N\c2ccccn2)cc1,H37Rv,MIC,,,,,≥25 µg/mL
CN(C)c1ccc2c(N(C)C)cc(N(C)C)[n+](C)c2c1.[I-],H37Rv,MIC bound,,,BACTEC,,>12.5 µg/mL
CCOc1ccc(N2C(=O)/C(=C/c3ccc(C)cc3)S/C2=N\c2ccccn2)cc1,H37Rv,MIC,,,,,≥25 µg/mL

For reference, 6 entries again:

structure,strain or isolate,endpoint,cells,tested at,read by,mutations,result
C[C@H]1COc2c(N3C[C@@H]4CCCN[C@@H]4C3)c(F)cc3c(=O)c(C(=O)O)cn1c23,Rifampicin-sensitive (7 strains pooled),Mean MIC,,,,,0.2 µg/mL
CCCOC(=O)CSc1nnc(-c2ccc([N+](=O)[O-])s2)s1,H37Rv,inhibition,,6.25 µg/mL,resazurin,,100%
C[C@H]1COc2c(N3CC[C@@H](CNC4CC4)C3)c(F)cc3c(=O)c(C(=O)O)cn1c23,Rifampicin-resistant (5 strains pooled),Mean MIC,,,,,1.7 µg/mL
[N-]=[N+]=NCCCCCCN1C(=O)C2(OCCO2)c2ccccc21,MC2 6230,MIC99,,,,,158 µM
O=C(NCc1ccccc1)c1ccccc1NS(=O)(=O)c1ccc(Cl)c(Cl)c1,H37Rv,inhibition,,6.25 µg/mL,resazurin,,-22%
O=C1CCCC2=C1C(c1cccs1)C1=C(CCCC1=O)O2,H37Ra,MIC,,,resazurin,,≥3.125 µg/mL

ECn: concentration that inhibits the pathogen or its effect by n%. Rows are shuffled and stem from different studies. MIC50, MIC90 and the like: level of inhibition, or share of isolates inhibited. MIC bound comes from a single tested concentration. Inhibition is in % at the dose shown (toxicity tests: loss of growth or viability). Two numbers with a dash give a range or band.